# Experiments:
# Amino acid sequences for entries named in this document (tags omitted). Residues count along the entry.
# UniProt C7C422, 29-270 limits assumed: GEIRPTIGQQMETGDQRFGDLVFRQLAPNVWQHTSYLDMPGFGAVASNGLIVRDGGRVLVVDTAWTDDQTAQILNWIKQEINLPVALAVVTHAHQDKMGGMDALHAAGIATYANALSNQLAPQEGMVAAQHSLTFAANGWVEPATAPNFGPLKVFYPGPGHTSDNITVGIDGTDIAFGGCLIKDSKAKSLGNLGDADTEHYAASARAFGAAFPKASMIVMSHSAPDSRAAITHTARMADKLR
# UniProt P52699, 19-246 limits assumed: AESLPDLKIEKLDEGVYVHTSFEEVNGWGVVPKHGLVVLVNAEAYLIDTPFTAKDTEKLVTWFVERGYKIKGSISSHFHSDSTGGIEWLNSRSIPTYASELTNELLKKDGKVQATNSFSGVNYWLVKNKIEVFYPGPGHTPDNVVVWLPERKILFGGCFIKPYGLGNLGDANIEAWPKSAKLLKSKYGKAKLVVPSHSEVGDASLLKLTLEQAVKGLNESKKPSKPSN
# [1] = test system: Escherichia coli expressing NDM-1 (CLB30016); experiment: Antibiotic potentiation activity: synergistic concentration (MITC95) with imipenem, growth by OD600; assay type: cell-based; details: 95% inhibition of bacterial growth, strain CLB30016
# Protocol: (§1) Antibiotic Potentiation Activity: Determination of Synergistic Concentration
# (§2) The bacterial strains tested included the clinical strains Escherichia coli expressing NDM-1 (CLB30005, CLB30016), Serratia marcescens expressing IMP-1 (CL5741), and Klebsiella pneumoniae expressing VIM-1 (IHMA599644). Inhibitor activity was measured in the presence and absence of imipenem or ceftazidime in a 384-well microplate.
# (§3) The clinical strains CLB30016, CL5741, and IHMA599644 were grown on trypticase soy agar containing 5% sheep's blood. The clinical strain CLB30005 was grown on Mueller Hinton broth agar containing 8 μg/ml imipenem. The bacteria on agar plates were incubated overnight at 35° C. with ambient humidity (achieved from an open pan of water inside the incubator). The following day, individual colonies from each clinical strain were picked and resuspended in 5 ml saline to attain an OD600 of 0.14, 0.11, 0.15 and 0.13, for CLB30005, CLB30016, CL5741 and IHMA599644, respectively. These were further diluted 1:100 into 1.1×CAMHB and used to inoculate the test wells as described below.
# (§4) Imipenem in 10 mM 3-(N-morpholino)propanesulfonic acid (MOPS, pH 7) was stored in single use aliquots at −80° C. Test inhibitors were dissolved in DMSO and diluted 1:50 in the assay, resulting in a final concentration range of 200 μM to 0.195 μM. On the day of the assay, 4 μl of antibiotic was added to 45 μl of bacteria followed by 1 μl of test compound and mixed by pipetting and with an orbital shaker. The concentration of antibiotic used in the assay was 1 μg/ml or 4 μg/ml. […] At the end of the incubation, absorbance was determined using a spectrophotometer. The synergistic concentration of MBLI was determined by identifying the lowest concentration of test compound in the presence of a given concentration of antibiotic that was required to inhibit 95% of the growth of the bacteria. […]
# (§5) Representative compounds of the present invention display a synergistic effect. For example, representative compounds of EXAMPLES 1-456 were determined to restore susceptibility to imipenem at concentrations of 200 μM or less.
# [2] = test system: Klebsiella pneumoniae expressing VIM-1 (IHMA599644); experiment: as above; assay type: cell-based; details: 95% inhibition of bacterial growth, strain IHMA599644
# Protocol: as §1, §2, §3, §4, §5
# [3] = test system: Serratia marcescens expressing IMP-1 (CL5741); experiment: as above; assay type: cell-based; details: 95% inhibition of bacterial growth, strain CL5741
# Protocol: as §1, §2, §3, §4, §5
# VIM-1 = VIM-1 (Pseudomonas aeruginosa, UniProt A0A0F7KYQ8); experiment: Enzyme activity: determination of IC50, fluorescence assay with CCF2-FA substrate; assay type: biochemical; details: read-out: VIM1 IC50; enzyme 30 pM, CCF2-FA 1.25 μM, 2 hours at 25° C.
# Protocol: (§6) Enzyme Activity: Determination of IC50
# (§7) The Class B enzyme activities were measured in the presence of a compound of the EXAMPLES as a test inhibitor in a fluorescence assay against a commercially available substrate consisting of a cephalosporin core linking 7-hydroxycoumarin to fluorescein (CCF2-FA; Life Technologies, Grand Island, N.Y.). The enzyme (NDM-1, IMP-1 or VIM-1) and the substrate were diluted in 100 mM KH2PO4 buffer (pH 7) containing 0.005% Tween-20 and 10 μM ZnSO4. In the assay, the final concentration of enzyme was 1 pM, 2 pM and 30 pM for NDM-1, IMP-1 and VIM-1, respectively, and the final concentration of CCF2-FA was 1.25 μM. The test inhibitor was dissolved in DMSO and diluted 1:50 in the assay, resulting in a final concentration range of 20 μM to 0.00063 μM. In a 384-well microplate, the test inhibitor was incubated with the metallo-β-lactamase enzyme and the substrate for 2 hours at 25° C. Fluorescence at 460 nm following excitation at 405 nm was measured. The IC50 value was determined from semi-logarithmic plots of enzyme inhibition versus inhibitor concentration, with a curve generated using a 4-parameter fit.
# NDM-1 = NDM-1 (Klebsiella pneumoniae, UniProt C7C422); experiment: as above; assay type: biochemical; details: read-out: NDM1 IC50; enzyme 1 pM, CCF2-FA 1.25 μM, 2 hours at 25° C.
# Protocol: as §6, §7
# IMP-1 = IMP-1 (Serratia marcescens, UniProt P52699); experiment: as above; assay type: biochemical; details: read-out: IMP1 IC50; enzyme 2 pM, CCF2-FA 1.25 μM, 2 hours at 25° C.
# Protocol: as §6, §7
smiles,measurement,setting,value
CCC[C@H](C(=O)O)[C@H](Cc1ccc(-c2ccc(CO)cc2)cn1)c1nnn[nH]1,NDM1 EC30016 MITC95,[1],18.8 µM
same,VIM1 KP599644 MITC95,[2],200 µM
same,IMP1 SM5741 MITC95,[3],150 µM
same,IC50,VIM-1,110 nM
same,IC50,NDM-1,120 nM
same,IC50,IMP-1,3200 nM
